Compound potency records, mixed from different reports. Data source: NIAID ChemDB in PubChem.

Shared fields: whole-cell or culture tests; agent: HIV-1; read-out: fold resistance

Fold resistance: result on the changed form divided by that on wild type. An empty or dashed field is not shown. Lines come from different laboratories, so protocols vary.

structure | strain | mutations | cells | method | value
C#C[C@@]1(CO)C=C[C@H](n2cc(C)c(=O)[nH]c2=O)O1 | NL4-3 | RT-K103N M184V | MAGI (CCR5) + MAGI | β-galactosidase | 1.15
Nc1nc2c(ncn2[C@H]2CO[C@@H](CO)O2)c(=O)[nH]1 | RT M41L 67N 69D 184V 210W 215Y | RT-M41L D67N M184V L210W T215Y | - | - | 1.4
CC(C)(C)C(=O)c1sc(C(=O)NCc2ccccc2)c(O)c1O | - | INTG-N155H | - | - | 1
O=c1[nH]cnc2c1ncn2[C@H]1CC[C@@H](CO)O1 | Recombinant | RT-A62T V118I M184V | HeLa | luciferase | 1.9
Cc1cn([C@H]2C[C@H](N=[N+]=[N-])[C@@H](CO)O2)c(=O)[nH]c1=O | UC10-resistant (RT K103N) | RT-K103N | CEM + CEM-SS | XTT | 0.06
Cc1cc(S(N)(=O)=O)ccc1NC(=O)COc1ccc(Cl)cc1C(=O)c1cc(Cl)cc(C#N)c1 | NNRTI-resistant (RT Y188L) | RT-Y188L | MAGI | β-galactosidase | 40.4
Cc1cn([C@H]2C[C@H](N=[N+]=[N-])[C@@H](CO)O2)c(=O)[nH]c1=O | IIIB | I401T R409K D437N | MT-2 | p24 / ELISA | 0.9
Cc1cc(O)cc(S(=O)(=O)c2cccc(N)c2C#N)c1 | - | RT-K103N V108I | HeLa + HELA CD4+ | β-galactosidase | 159
CC(=O)c1ccc(C)cc1NC(C(N)=O)c1c(Cl)cccc1Cl | IIIB | RT-T240I | MAGI | MTT | 4.89
Cc1cc(Cl)cc(S(=O)(=O)c2cccc(N)c2C#N)c1 | - | RT-V108I | HeLa + HELA CD4+ | β-galactosidase | 1.22
O=c1[nH]cnc2c1ncn2[C@H]1CC[C@@H](CO)O1 | JF14 (RT D67N T69D T215Y) | RT-D67N T69D T215Y | HELA-CD4+ | plaque count | 1
O=c1[nH]cnc2c1ncn2[C@H]1CC[C@@H](CO)O1 | RTMC (RT D67N K70R T215F K219Q) | RT-D67N K70R T215F K219Q | HT4 + HT4 LacZ-1 | plaque count | 1.86
Cc1cc(Br)cc(S(=O)(=O)c2cccc(N)c2C#N)c1 | - | RT-V106A | HeLa + HELA CD4+ | β-galactosidase | 0.218
Nc1ccn([C@H]2CC[C@@H](CO)O2)c(=O)n1 | RTMN (RT-M41L T215Y) | RT-M41L T215Y | HT4 + HT4 LacZ-1 | plaque count | 2.96
CCc1c(Sc2ccccn2)n(COCc2ccccc2)c(=O)[nH]c1=O | Costatolide-resistant (RT L100I T139I) | RT-L100I T139I | CEM + CEM-SS | XTT | 75
O=c1[nH]cnc2c1ncn2[C@H]1CC[C@@H](CO)O1 | - | RT-K65R | - | - | 7
Cc1ccnc2c1NC(=O)c1cccnc1N2C1CC1 | RTMC | RT-D67N K70R T215Y K219Q | HT4 + HT4 LacZ-1 | plaque count | 1
N#Cc1cc2[nH]c3ccccc3c2n(-c2ccc([N+](=O)[O-])cc2)c1=O | NNRTI-resistant | RT-G190S | HeLa | luciferase | 1.7
Cc1ccnc2c1NC(=O)c1cccnc1N2C1CC1 | 3TC-resistant (RT M184V) | RT-M184V | CEM + CEM-SS | XTT | 1
Cc1cn([C@H]2C=C[C@@H](CO)O2)c(=O)[nH]c1=O | NL4-3 | RT-K103N | MAGI (CCR5) + MAGI | β-galactosidase | 0.84
CCOP(=O)(COc1ccc(C[C@H](NC(=O)O[C@H]2CO[C@H]3OCC[C@H]32)[C@H](O)CN(CC(C)C)S(=O)(=O)c2ccc(OC)cc2)cc1)OCC | IIIB | 8374-P47 GS-8374-resistant | MT-2 | ATP | 9.5
CC(C)Oc1ccc(Cc2ccccc2)cc1C(=O)CC(=O)C(=O)O | - | IN-T66I S153Y N155S | - | - | >125
CCN(c1nc(F)ccc1NC(C)(C)C)C1CCN(C(=O)c2cc3cc(NC(=O)N4CCN(C)CC4)ccc3[nH]2)CC1 | IIIB | I401T | MT-2 | p24 / ELISA | 0.9
CC(C)=CCOc1cc(NC(=S)c2ccoc2C)ccc1Cl | Calanolide A-resistant (RT T139I) | RT-T139I | CEM + CEM-SS | XTT | 8
Nc1nc(NC2CC2)c2ncn([C@H]3C=C[C@@H](CO)C3)c2n1 | Recombinant | RT-M41L A62V S68N G112S M184V | HeLa | luciferase | 0.6
COc1cc(C(F)(F)F)cc(S(=O)(=O)c2cccc(N)c2C#N)c1 | - | RT-V106A Y181C | HeLa + HELA CD4+ | β-galactosidase | 30
Cc1cn([C@H]2C[C@H](N=[N+]=[N-])[C@@H](CO)O2)c(=O)[nH]c1=O | - | INTG-T66I S153Y | - | - | 1